Reference: paper PMC11542851 (PLOS Pathogens, 2024)

Each binder was assayed against T1, SARS-CoV-1 recombinant spike protein (trimer), CUHK-W1 strain (SARS-CoV-1 CUHK-W1, UniProt P59594, strain) (assay: ELISA).
T1 construct: source: bought: Acro Biosystems

| Binder | binding result |
| --- | --- |
| C68.175 (antibody, V domains shown) VH: EVQLLESGGGLVQPGGSLRLSCAASGFTFSSYAMSWVRQAPGKGLEWVSGISGSGGSTYYADSVKGRFTISRDNSKNTLHLQMNSLRAEDTAVYYCAKGSRWNPDYFDYWGQGTLVTVSS VL: not shown | binds |
| C68.83 (antibody, V domains shown) VH: EVQLVESGGGVVQPGRSLRLSCAASGFIFSSYGMHWVRQAPGKGLEWVAVIWYDGSNKYYADSVKGRFTISRDNSKNTLYLQMNSLRAEDTAVYYCARDDPEVGCSGGSCYYYYDMDVWGQGTTVTVSS VL: SYELTQPPSVSVSPGQTARITCSGDALPKQHAHWYQQKPGQAPVLVIYKDIERPSGIPERFSGSSSGTTVTLTISGVQAEDEADYYCQSADSSVTYVVFGGGTKLTVL | binds |
| C68.239 (antibody, V domains shown) VH: EVQLLESGGGLVQPGGSLRLSCAASGFTFSSYAMSWVRQAPGKGLEWVSAISGGGDNTYYADSVKGRFTISRDNSKNTLYLQMNSLRAEDTAVYFCAKNPITVVPAAWDRGYFDLWGRGTLVTVSS VL: SYELTQPPSVSVAPRKTARITCGGNNIGSYSVHWYQQRPGQAPVLVVHDDSDRPSGIPERFSGSNSGNTATLTISRVEAGDEADYYCQVWDSSSDHRGVFGGGTKLTVL | binds |
| C68.121 (antibody, V domains shown) VH: EVQLVESGGGLVKPGGSLRLSCAASGFTFSDYYMTWIRQAPGKGLEWVSKITNSNSYTHYADSVKGRFTISRDNAKNSLFLHMNSLRAEDTAVYYCARAIWIGYPDDYYMDVWGKGTTVTVSS VL: SYELTQPPSVSVSPGQTARITCSGDTLPNQYVYWYQQKPGQAPVLLIYKDTERPSGIPERVSGSTSGTTVTLTISGVQAEDEADYYCQSADSSGTSFGGGTKLTVL | binds |
| C68.185 (antibody, V domains shown) VH: QVQLVQSGAEVKKPGASVKVSCKTSGYAFTDHYVHWVRQAPGQGLEWMGVINPSGVGTSYAQMFQDRVTLTSDTSTSTVYMVLSSLRSEDTAVYYCVRDDYGVPARGWFDPWGQGTLVTVSS VL: EVVLTQSPATLSLSPGERATLSCRASQSISSYLAWYQQKPGQAPRLLIYDASNRATGVPARFSGSGSGADFTLTISSLEAEDFALYYCQHRSNWLYTFGQGTKLEIK | binds |
| C68.183 (antibody, V domains shown) VH: EVQLLESGGGLVQPGGSLRLSCVASGFTFRNFAMSWVRQAPGKGLEWVSAISGSGDSTYYADSVKGRFTISRDNSKNTLYLQVNSLRVEDTAIYYCAKGSRGSTDYFDSWGQGTLVTVSS VL: not shown | binds |
| C68.88 (antibody, V domains shown) VH: QVQLQESGPGLVKPSETLSLTCSVSGGPISSSRYYWGWIRQSPGEGLEWIGTIYYSGSTYYNPSFKSRVTISVDTSKNQFSLKLSSVTAADTAVYYCATRCYDFWSGYYNREMLWFDCWGQGTLVTVSS VL: NFMLTQPHSVSESPGKTVTISCTRSSGSIASNYVQWYQQRPGSSPTTVIYENNQTPSGVPDRFSGSIDSSSNSASLTISGLKTEDEADYYCQSYDSSVVVFGGGTKLTVL | binds |
| C68.200 (antibody, V domains shown) VH: EVQLLESGGGLVQPGGSLRLSCTASGFTFSRYALTWVRQAPGKGLEWVSAISGSGGNTNYADSVKGRFTISRDNSKNTLYLQMNSLRAEDTAVYYCAKSPRYNNDYFDFWGQGTLVTVSS VL: DIQLTQSPSTLSASVGDRVTITCRASQSISSWLAWYQQKPGKAPKLLIYDASSLESGVPSRFSGSGSGTEFTLTISSLQPDDFATYYCQQYNTFITFGHGTRLEIK | binds |
| C68.203 (antibody, V domains shown) VH: EVQLLESGGGLVQPGGSLRLSCTASGFTFSRYALTWVRQAPGKGLECVSAFSGSGDSTYYADSVKGRFTISRDNSKNTLYLQMNSLRAEDTAVYYCAKSPRYNSDYFDFWGQGTLVTVSS VL: DIQLTQSPSTLSASVGDRVTITCRASQSISSWLAWYQQKPGKAPKLLIYDASSLESGVPSRFSGSGSGTEFTLTISSLQPDDFATYYCQQYNSFITFGQGTRLEIK | binds |
| C68.327 (antibody, V domains shown) VH: EVQLLESGGGLVQPGGSLRLSCAASGFTFGSYAMSWVRQAPGKGLEWVSAISGSGGSTYYADSVKGRFTISRDNSKNTLYLQMNSLRAEDTAVYNCAKDLWDGFHWFDSWGQGTLVTVSS VL: DIQMTQSPSSVSASVGDRVTITCRASQGISSWLAWYQQKPGKAPNLLIYSASSLQSGVPSRFSGSGSGTDFTLTISSLQPEDFATYYCQQANSFPITFGQGTRLEIK | binds |
| C68.348 (antibody, V domains shown) VH: QVQLQESGPRLVKSSGTLSLTCAVSGGSISSSKWWSWVRQPPGKGLEWIGEVYHGGSTNYNPSLKSRVTISVDKAKNQFSLKLSSVTAADSAVYYCASLDSAAVFDYWGQGTLVTVSS VL: QSALTQPASVSGSPGQSITISCTGTSSDVGRFNYVSWYQQHPGKAPKLLIYDVSNRPSGVSNRFSGSKSGNTASLTISGLQAEDEADYYCNSYTSSSTLYVFGTGTKVTVL | binds |

Each binder was assayed against SARS-CoV-2 Wuhan-Hu-1 RBD, yeast-displayed (SARS-CoV-2 Wuhan-Hu-1, UniProt P0DTC2) (assay: flow cytometry on cells).

| Binder | binding result |
| --- | --- |
| C68.239 (antibody, V domains shown) VH: EVQLLESGGGLVQPGGSLRLSCAASGFTFSSYAMSWVRQAPGKGLEWVSAISGGGDNTYYADSVKGRFTISRDNSKNTLYLQMNSLRAEDTAVYFCAKNPITVVPAAWDRGYFDLWGRGTLVTVSS VL: SYELTQPPSVSVAPRKTARITCGGNNIGSYSVHWYQQRPGQAPVLVVHDDSDRPSGIPERFSGSNSGNTATLTISRVEAGDEADYYCQVWDSSSDHRGVFGGGTKLTVL | binds |
| C68.88 (antibody, V domains shown) VH: QVQLQESGPGLVKPSETLSLTCSVSGGPISSSRYYWGWIRQSPGEGLEWIGTIYYSGSTYYNPSFKSRVTISVDTSKNQFSLKLSSVTAADTAVYYCATRCYDFWSGYYNREMLWFDCWGQGTLVTVSS VL: NFMLTQPHSVSESPGKTVTISCTRSSGSIASNYVQWYQQRPGSSPTTVIYENNQTPSGVPDRFSGSIDSSSNSASLTISGLKTEDEADYYCQSYDSSVVVFGGGTKLTVL | binds |
